The record followed here is PMC9866728, “Dosing Methods to Enable Cell-Based In Vitro Testing of Complex Substances: A Case Study with a PAH Mixture” (Toxics, 2022).

The data set can be described thus: Protein binding: media-dissolved fraction (FMD) and unbound fraction (FUB) in cell culture media without cells (ultracentrifugation, GC-MS/MS).

Each structure is given as a SMILES string. “And” between values parts separate entries of the source, which are not always exact repeats. Equal entries are not always repeated.

Regarding `c1ccc2ccccc2c1` [Naphthalene], the “ISTD Resp. Ratio, stock” value by setting is: (0.375 ug/mL DMSO extract, 1 hr exposure block, stock reference samples STOCK_R1-R3, raw GC-MS/MS response ratio to ISTD) 8.133 and 7.988 and 8.011; (0.375 ug/mL DMSO extract, 24 hr exposure block, stock samples STOCK_R1-R3, GC-MS/MS area ratio to ISTD) 7.98 and 7.9837 and 7.945; (STOCK_10_R1-R3 (replicates) of the block 10 ug/mL MAF, 24 hr exposure, raw GC-MS/MS analyte/ISTD response ratio) 129.443 and 129.454 and 131.226. In addition, the “ISTD Resp. Ratio (Raw Data for FMD)” value (0.375 ug/mL DMSO extract, 1 hr exposure, media-dissolved fraction, replicates DMSO_FMD_R1-R4, raw GC-MS/MS response ratio to ISTD) is 0.9269 and 0.818 and 0.8426 and 0.8495; the “ISTD Resp. Ratio (Raw Data for FMD)” value (0.375 ug/mL DMSO extract, 24 hr exposure, media-dissolved fraction samples, replicates DMSO_FMD_R2-R4, GC-MS/MS area ratio to ISTD) is 0.3662 and 0.358 and 0.3311; the “ISTD Resp. Ratio (Raw Data for FMD)” value (0.375 ug/mL DMSO extract, 24 hr exposure, media-dissolved fraction, replicate DMSO_FMD_R1, raw GC-MS/MS response ratio to ISTD) was found to be 0.3564; the “ISTD Resp. Ratio (Raw Data for FMD)” value (10 ug/mL micro-O-Rings, 1 hour exposure, media-dissolved fraction samples, replicates ORINGS_1H_FMD_R1-R3, GC-MS/MS area ratio to ISTD) is 0.006236 and 0.01602 and 0.1099; the “ISTD Resp. Ratio (Raw Data for FMD)” value (10 ug/mL micro-O-Rings, 24 hour exposure, media-dissolved fraction samples, replicate ORINGS_24H_FMD_R1, GC-MS/MS area ratio to ISTD) is recorded as 0.005629. Besides, the “ISTD Resp. Ratio (Raw Data for FUB)” value (0.375 ug/mL DMSO extract, 1 hr exposure, unbound fraction, replicates DMSO_FUB_R1-R4, raw GC-MS/MS response ratio to ISTD) was 0.08415 and 0.08288 and 0.08584 and 0.0813; the “ISTD Resp. Ratio (Raw Data for FUB)” value (0.375 ug/mL DMSO extract, 24 hr exposure, unbound fraction samples, replicates DMSO_FUB_R1-R4, GC-MS/MS area ratio to ISTD) is 0.003002 and 0.001979 and 0.002153 and 0.002289; the “ISTD Resp. Ratio (Raw Data for FUB)” value (10 ug/mL micro-O-Rings, 1 hour exposure, unbound fraction samples, replicates ORINGS_1H_FUB_R1-R3, GC-MS/MS area ratio to ISTD) is 0.001735 and 0.001255 and 0.08302. The “ISTD Resp. Ratio (raw data for FMD)” value reads like this: (10 ug/mL MAF (MAF_1H_FMD), 1 hour exposure, replicates R1-R3) 11.5368 and 10.6183 and 12.391; (O-rings (ORINGS_24H_FMD), 24 hour exposure, media without cells, GC-MS/MS analyte/ISTD response ratio, replicates R2-R3) 0.1109 and 0.07326. The “ISTD Resp. Ratio (raw data for FUB)” value is, setting by setting: (10 ug/mL MAF (MAF_1H_FUB), 1 hour exposure, replicates R1-R3) 1.688 and 1.9128 and 1.817; (O-rings (ORINGS_24H_FUB), 24 hour exposure, media without cells, GC-MS/MS analyte/ISTD response ratio, replicates R1-R3) 0.001391 and 0.001433 and 0.001313. Moreover, the “ISTD Resp. Ratio, Raw Data for FMD (media-dissolved fraction)” value (10 ug/mL MAF, 24 hour exposure, samples MAF_24H_FMD_R1-R3 (replicates), raw GC-MS/MS analyte/ISTD response ratio) is 3.124 and 3.299 and 3.208. For the same compound, the “ISTD Resp. Ratio, Raw Data for FUB (unbound fraction)” value (10 ug/mL MAF, 24 hour exposure, samples MAF_24H_FUB_R1-R3 (replicates), raw GC-MS/MS analyte/ISTD response ratio) is 0.491 and 0.4462 and 0.6985. For the same compound, the “ISTD Resp. Ratio (STOCK_10)” value (STOCK_10 reference samples of the O-rings section, replicates R1-R3) is 100.74 and 103.988 and 107.809.
